Compound potency records, mixed from different reports. Data source: NIAID ChemDB in PubChem.

Shared fields: tests on isolated targets; species: HIV-1; target: Protease; measure: IC50

ICn: concentration for n% inhibition. Blank or dashed fields: not listed here. Neighbouring rows are from separate reports. a–b is a range or a potency band.

| smiles | strain | method | setting | result |
|---|---|---|---|---|
| CC(C)[C@H](NC(=O)N(C)Cc1ccccn1)C(=O)N[C@@H](Cc1ccccc1)[C@@H](O)[C@H](O)[C@H](Cc1ccccc1)NC(=O)[C@@H](NC(=O)N(C)Cc1ccccn1)C(C)C |  | fluorescence |  | 0.0017 µM |
| CCN(CCN(C)C)c1ccc(C(=O)CCCN2CCC(O)(c3ccc(Cl)cc3)CC2)cc1 |  |  |  | 355 µM |
| CC(C)(C)OC(=O)N[C@@H](Cc1ccccc1)[C@@H](O)C[C@@H](Cc1ccc(OCc2nn[nH]n2)cc1)C(=O)N[C@H]1c2ccccc2C[C@H]1O |  | absorbance |  | 0.00004 µM |
| Cc1cccc(C)c1OCC(=O)N[C@@H](Cc1ccccc1)[C@H](O)C(=O)N1CSC(C)(C)[C@H]1C(=O)NN(C)c1ccccc1 |  | HPLC |  | >0.05 µM |
| O=C(CCCN1CCC(O)(c2ccc(Cl)cc2)CC1)c1ccc(NC2CCCCC2)cc1 |  |  |  | 95 µM |
| COC(=O)[C@@H](NC(=O)[C@H](CC(C)C)NC(=O)[C@@H](NC(=O)CCCOc1ccc2ccc(OCCCC(=O)N[C@@H](CCC(=O)O)C(=O)N[C@@H](CC(C)C)C(N)=O)cc2n1)C(C)C)C(C)C |  | fluorescence |  | >5.7 µM |
| CC(C)[C@H](NC(=O)OCc1ccccc1)C(=O)N[C@@H](Cc1ccccc1)[C@@H](O)[C@H](O)[C@H](Cc1ccccc1)NC(=O)[C@@H](NC(=O)OCc1ccccc1)C(C)C |  | radiometric |  | 0.0456 µM |
| CC[C@H](C)[C@H](NC(=O)[C@@H](NC(=O)CCCOc1ccc2ccc(OCCCC(=O)N[C@H](C(=O)N[C@H](C(=O)N[C@H](C(=O)OC)C(C)C)[C@@H](C)CC)[C@@H](C)O)nc2c1)[C@@H](C)O)C(=O)N[C@H](C(=O)OC)C(C)C |  | fluorescence |  | >5.7 µM |
| Cc1c(C(c2ccccc2)(c2ccccc2)n2ccnc2)nnn1-c1ccccc1Cl |  | substrate cleavage / fluorescence |  | 48.4 µg/mL |
| Cc1cc(C)c(CNC(=O)[C@H]2N(C(=O)[C@@H](O)[C@H](Cc3ccccc3)NC(=O)COc3c(C)cccc3C)CSC2(C)C)c(=O)[nH]1 |  | HPLC |  | >0.05 µM |
| Cc1ccc(C(=O)N(C)Cc2ccc(F)cc2)cc1C(=O)N[C@@H](Cc1ccccc1)[C@@H](O)CN1C[C@H]2CCCC[C@H]2C[C@H]1C(=O)NC(C)(C)C |  | fluorescence |  | 0.0053 µg/mL |
| Cc1cccc(C)c1OCC(=O)N[C@@H](Cc1ccccc1)[C@H](O)C(=O)N1CSC(C)(C)[C@H]1C(=O)NCc1cccc(C(N)=O)c1 |  | HPLC |  | <0.05 µM |
| COc1ccc(S(=O)(=O)NC(N)=NCCC[C@H](NC(=O)N[C@@H](Cc2ccccc2)C(=O)OC(C)(C)C)C(=O)N[C@H](C(=O)N[C@H](COCc2ccccc2)Cc2ccccc2)C(C)C)cc1 |  | HPLC |  | >100 µM |
| CC(C)(C)NC(=O)[C@@H]1CCCN1C(=O)[C@@H](O)[C@H](Cc1ccccc1)NC(=O)[C@H](CC(N)=O)NC(=O)OCc1ccccc1 |  | HPLC |  | 0.049 µM |
| Cc1c(O)cccc1C(=O)N[C@@H](Cc1ccccc1)[C@H](O)C(=O)N1CSC(C)(C)[C@H]1C(=O)NCc1cccnc1 |  | HPLC |  | <0.05 µM |
| CC(C)C[C@H](NC(=O)[C@H](Cc1ccccc1)[C@H](O)[C@H](O)[C@H](Cc1ccccc1)NC(=O)OC(C)(C)C)C(=O)N[C@@H](Cc1ccccc1)C(N)=O |  | HPLC |  | 0.0001–0.01 µM |
| CC(C)(O)c1cccc(CN2C(=O)N(Cc3cccc(C(C)(C)O)c3)[C@H](Cc3ccccc3)[C@H](O)[C@@H](O)[C@H]2Cc2ccccc2)c1 | RF |  |  | 0.015 µM |
| CC(C)(C)OC(=O)N[C@@H](Cc1ccccc1)[C@@H](O)C[C@@H](Cc1ccccc1)C(=O)NCc1ccccc1 |  | HPLC |  | 0.12 µM |
| CC(C)[C@H](NC(=O)OCc1ccccc1)C(=O)NCP(=O)(O)CNC(=O)[C@@H](NC(=O)OCc1ccccc1)C(C)C |  |  |  | >10 µM |
| CCOC(=O)COc1ccc(C[C@H](C[C@H](O)[C@H](Cc2ccccc2)NC(=O)OC(C)(C)C)C(=O)N[C@H]2c3ccccc3C[C@H]2O)cc1 |  | absorbance |  | 0.0001 µM |
| CC(C)(C)OC(=O)N[C@@H](Cc1ccccc1)[C@H](O)CNC[C@@H](O)[C@H](Cc1ccccc1)NC(=O)OCc1cccnc1 |  | HPLC | pH 5.5 | <10 µM |
| CC1(C)S[C@H]([C@H](NC(=O)Cc2ccccc2)C(=O)NCc2ccccc2)N[C@H]1C(=O)NCCNC(=O)[C@@H]1N[C@@H]([C@H](NC(=O)Cc2ccccc2)C(=O)NCc2ccccc2)SC1(C)C | RF | HPLC |  | 0.0009 µM |
| CC(C)C[C@H](NC(=O)[C@H](Cc1ccccc1)C[C@@H](O)[C@H](Cc1ccccc1)NC(=O)OC(C)(C)C)C(=O)N[C@@H](Cc1ccccc1)C(N)=O |  | fluorescence |  | 1 µM |
| COCCOCCOCCNC(=O)[C@@H](NC(=O)[C@H](Cc1ccccc1)C[C@H](O)[C@H](Cc1ccccc1)NC(=O)OC(C)(C)C)C(C)C |  | HPLC |  | 0.0001–0.01 µM |
| Cc1ccc(C(=O)N[C@@H](Cc2ccccc2)[C@@H](O)Cc2ccccc2C(=O)NC(C)(C)C)cc1C(=O)N1CCc2ccccc2C1 |  | fluorescence |  | 0.0036 µg/mL |
| CC(C)[C@H](NC(=O)[C@H](CCCN=C(N)N)NC(=O)N[C@@H](Cc1ccccc1)C(=O)O)C(=O)N[C@H](CO)Cc1ccccc1 |  | HPLC |  | 64.3 µM |
| Cc1cccc(C)c1OCC(=O)N[C@@H](Cc1ccccc1)[C@H](O)CN1CC[C@@H](Sc2ccncc2)C[C@H]1C(=O)NC(C)(C)C |  |  |  | 0.0033 µM |
| CC(C)(C)OC(=O)N[C@@H](Cc1ccccc1)[C@@H](O)C[C@@H](C/C=C/c1ccccc1)C(=O)N[C@H]1c2ccccc2[C@@H](O)[C@H]1O |  | HPLC |  | 0.0001–0.01 µM |
| COC(=O)NC(C(=O)N[C@@H](Cc1ccccc1)[C@H](O)CNC[C@@H](O)[C@H](Cc1ccccc1)NC(=O)OC(C)(C)C)C(C)(C)C |  | HPLC | pH 5.5 | >10 µM |
| CC(C)(C)OC(=O)N[C@@H](Cc1ccccc1)[C@@H](O)C[C@@H](CSc1ccccc1)C(=O)N[C@H](C(=O)NCCO)c1ccccc1 |  | HPLC |  | 0.0001–0.01 µM |
| CCN(CC)c1cccc(C2(O)CCN(CCCC(=O)c3ccc(F)cc3)CC2)c1 |  |  |  | >200 µM |
| COCCOc1ccc(C[C@H](NC(=O)OC(C)(C)CO)[C@H](O)CNC[C@@H](O)[C@H](Cc2ccccc2)NC(=O)OC(C)(C)C)cc1 |  | HPLC | pH 5.5 | <10 µM |
| Cc1ccc(C(=O)N(C)Cc2cccc3ccccc23)cc1C(=O)N[C@@H](Cc1ccccc1)[C@@H](O)CN1C[C@H]2CCCC[C@H]2C[C@H]1C(=O)NC(C)(C)C |  | fluorescence |  | 0.0084 µg/mL |
| CC(C)C[C@H](NC(=O)OCc1ccccc1)C(=O)N[C@@H](CC(N)=O)C(=O)N[C@@H](Cc1ccccc1)[C@H](O)CN1CCC[C@H]1C(=O)OC(C)(C)C |  | absorbance |  | 0.6 µM |
| CC(C)OP(=O)(COc1ccc(C[C@H](C[C@H](O)[C@H](Cc2ccccc2)NC(=O)OC(C)(C)C)C(=O)N[C@H]2c3ccccc3C[C@H]2O)cc1)OC(C)C |  | absorbance |  | 0.0001 µM |
| CN(C)CCCNc1ccc(C(=O)CCCN2CCC(O)(c3ccc(Cl)cc3)CC2)cc1 |  |  |  | 210 µM |
| CC(C)(C)OC(=O)N[C@@H](Cc1ccccc1)[C@@H](O)C[C@@H](C/C=C/c1ccccc1)C(=O)N[C@H](C(=O)NCCO)c1ccccc1 |  | HPLC |  | 0.0001–0.01 µM |
| Cc1ccc(C(=O)N(C)Cc2ccccn2)cc1C(=O)N[C@@H](CSc1ccccc1)[C@@H](O)CN1C[C@H]2CCCC[C@H]2C[C@H]1C(=O)NC(C)(C)C |  | fluorescence |  | 0.0148 µg/mL |

Repeating the first 2 entries:

{"smiles": "CC(C)[C@H](NC(=O)N(C)Cc1ccccn1)C(=O)N[C@@H](Cc1ccccc1)[C@@H](O)[C@H](O)[C@H](Cc1ccccc1)NC(=O)[C@@H](NC(=O)N(C)Cc1ccccn1)C(C)C", "method": "fluorescence", "result": "0.0017 µM"}
{"smiles": "CCN(CCN(C)C)c1ccc(C(=O)CCCN2CCC(O)(c3ccc(Cl)cc3)CC2)cc1", "result": "355 µM"}